Measured values from several laboratories, pooled; numbers as filed in NIAID ChemDB.

Common to all: enzyme or target tests; species: HIV-1; protein: Reverse transcriptase; method: nucleotide incorporation / radiometric; endpoint: IC50

An empty or dashed field is not shown. Two numbers with a dash give a range or band. ICn is the concentration giving n% inhibition. Lines come from different laboratories, so protocols vary.

compound | mutations | strain | result
CCN1c2ncc(CCOc3cccc4c3CS(=O)(=O)N4)cc2-c2nccn2-c2c(C)ccnc21 |  |  | <0.05 µM
CC(C)=CCC/C(C)=C/Cc1c(O)cc(O)c(C/C=C(\C)CCC=C(C)C)c1C(=O)c1c(O)cc(O)cc1O |  |  | 23.9 µg/mL
CCN1c2ncc(CCOc3cccc4c3CN(C)C(=O)N4C)cc2-c2ncc(C)n2-c2cccnc21 |  |  | <0.05 µM
COC(=O)CCC(=O)NC[C@@H]1CC[C@H](n2cc(-c3cccs3)c(=O)[nH]c2=O)O1 |  |  | 100 µg/mL
CCN1c2ccccc2N(c2ccccc2)C(=O)c2cnn(C)c21 |  | IIIB | >30 µM
Nc1ncnn2c(C[C@H](CF)OCP(=O)(O)OP(=O)(O)OP(=O)(O)O)cnc12 |  |  | 0.05–0.25 µM
CN(C)S(=O)(=O)c1ccc(NC(=O)Cc2ccc(Oc3cc(C#N)cc(C#N)c3)c(Cl)c2)cc1 |  |  | 100 µM
CCN1c2ncc(CCOc3ccc(CC(=O)O)c4c3CCCC4)cc2C(=O)N(C)c2cccnc21 | RT-K103N Y181C |  | 0.1–1 µM
CCN1c2ncc(CCOc3ccc4c(c3)CNC(=O)N4)cc2C(=O)N(C)c2cccnc21 |  | IIIB | 0.05–0.1 µM
CCN1c2ncc(CCOc3ccc4cc(CC(=O)O)ccc4c3)cc2C(=O)N(C)c2cccnc21 | RT-V106A |  | 0.1–1 µM
Cc1ccc(C)c(CS(=O)(=O)c2cccc[n+]2[O-])c1 |  |  | 107 µg/mL
COC(=O)c1ccc(NC(=O)Cc2ccc(Oc3cc(C#N)cc(C#N)c3)c(Cl)c2)cc1 |  |  | 100 µM
O=S(=O)(Cc1ccccc1I)c1cccc[n+]1[O-] |  |  | 186 µg/mL
Cc1cc(S(N)(=O)=O)ccc1NC(=O)COc1ccccc1C(=O)c1cc(Cl)cc(C#N)c1 | RT-Y188L | NNRTI-resistant | 0.0679 µM
C[C@H](Cc1cnn2c(N)ncnc12)OCP(=O)(O)OP(=O)(O)OP(=O)(O)O |  |  | 0.05–0.25 µM
N#Cc1cc(Cl)cc(Oc2c(Br)ccc(Cc3nn(COC(=O)CCC(=O)O)c4nnccc34)c2F)c1 |  |  | 0.0049 µM
C/C(=C\CC/C(C)=C/CCc1ccoc1)C/C=C/C1=CCC(=O)OC1 |  |  | 3.2 µM
CCOC(=O)/C=C/C(=O)NC[C@@H]1CC[C@H](n2cc(-c3cccs3)c(=O)[nH]c2=O)O1 |  |  | >200 µg/mL
CC(C)N1c2ccccc2N(C)C(=O)c2cnc(-c3ccccc3)nc21 |  | IIIB | >30 µM
Nc1ccn([C@@H]2O[C@H](COP(=O)(O)O[C@@H]3[C@H](O)[C@@H](COP(=O)(O)O[C@@H]4[C@H](O)[C@@H](COP(=O)(O)O)O[C@H]4n4ccc(N)nc4=O)O[C@H]3n3ccc(N)nc3=O)[C@@H](O)[C@H]2O)c(=O)n1 |  |  | 290 µM
Nc1ncnc2c(C[C@@H](CF)OCP(=O)(O)OP(=O)(O)OP(=O)(O)O)cnn12 |  |  | <0.05 µM
CCN1c2ncc(CCOc3cccc4c3CNC4=O)cc2C(=O)N(C)c2cccnc21 | RT-K103N Y181C | IIIB | >0.1 µM
CCN1c2ncc(CCOc3cccc4c3CS(=O)(=O)N4CC(=O)OC(C)(C)C)cc2-c2nccn2-c2c(C)ccnc21 | RT-K103N Y181C |  | 0.05–0.1 µM
O=C(O)/C=C/C(=O)NC[C@@H]1CC[C@H](n2cc(-c3cccs3)c(=O)[nH]c2=O)O1 |  |  | >200 µg/mL
CCN1c2ncc(CCOc3cccc4c3CN(O)C4=O)cc2C(=O)N(C)c2cccnc21 |  | IIIB | 0.05–0.1 µM
CC(Cc1ccc2c(=O)[nH]c(N)nn12)OCP(=O)(O)OP(=O)(O)OP(=O)(O)O |  |  | <0.05 µM
O=C(O)/C=C\C(=O)NC[C@@H]1CC[C@H](n2cc(-c3cccs3)c(=O)[nH]c2=O)O1 |  |  | 130 µg/mL
CCN1c2ncc(CCOc3cccc4c3CNC(=O)N4)cc2C(=O)N(C)c2cccnc21 |  | IIIB | <0.05 µM
CC(Cc1cnc2c(=O)[nH]c(N)nn12)OCP(=O)(O)OP(=O)(O)OP(=O)(O)O |  |  | 0.05–0.25 µM
COc1ccc(C)cc1CS(=O)(=O)c1cccc[n+]1[O-] |  |  | 94 µg/mL
CC(C)N1c2ccccc2N(C)C(=O)c2cncnc21 |  | IIIB | >30 µM
CCNC(=O)N1CCc2c(OCCc3cnc4c(c3)C(=O)N(C)c3cccnc3N4CC)ccc(C(=O)O)c2C1 | RT-V106A |  | 0.1–1 µM
CCN1c2ncc(CCOc3ccc(-c4ccc(CC(=O)O)cc4)cc3C)cc2-c2ncc(C)n2-c2cccnc21 | RT-K103N Y181C |  | 0.05–0.1 µM
CCN1c2ncc(CCOc3cccc4c3CCNC4=O)cc2C(=O)Nc2c(C)ccnc21 | RT-K103N Y181C | IIIB | >0.1 µM
Nc1ccn([C@@H]2O[C@H](COP(=O)(O)O[C@@H]3[C@H](O)[C@@H](COP(=O)(O)O[C@@H]4[C@H](O)[C@@H](CO)O[C@H]4n4ccc(N)nc4=O)O[C@H]3n3ccc(N)nc3=O)[C@@H](O)[C@H]2O)c(=O)n1 |  |  | >400 µM
C[C@H]1/C=C/[C@@]2(C)CC[C@@H](C(C)(C)O)[C@@H]2[C@@H](O)C[C@](C)(O)/C=C/C1 |  |  | <40 µM
CCN1c2ccccc2N(C)C(=O)c2cnn(C)c21 |  | IIIB | >30 µM
Nc1ncnc2c(C[C@H](OCP(=O)(O)OP(=O)(O)OP(=O)(O)O)C(F)F)cnn12 |  |  | ≥0.25 µM
CCN1c2ncc(CCOc3ccc(C(=O)O)c4c3CCN(C(=O)OC)C4)cc2C(=O)N(C)c2cccnc21 | RT-Y188L |  | 0.1–1 µM
Nc1nc2c(ncn2[C@H]2CC[C@@H](COP(=O)(O)OP(=O)(O)OP(=O)(O)O)O2)c(=O)[nH]1 | RT-F116Y |  | 0.027 µM
COc1cc(CC(=O)Nc2ccc(CS(N)(=O)=O)cc2)ccc1Oc1cc(Cl)cc(C#N)c1 |  |  | 10 µM
CCc1c(Cc2c(Cl)cccc2Cl)nc(SC/C=C/c2ccc([N+](=O)[O-])cc2)[nH]c1=O |  |  | 25 µM
Nc1ncnc2c1ncn2[C@H]1CC[C@@H](COP(=O)(O)OP(=O)(O)OP(=O)(O)O)O1 | RT-Q151M |  | 11 µM
CCN1c2ncc(CCOc3cccc4c3CNC4=O)cc2-c2ncc(C)n2-c2cccnc21 | RT-K103N Y181C |  | >0.1 µM
Nc1ccn([C@@H]2O[C@H](COP(=O)(O)O[C@@H]3[C@H](O)[C@@H](COP(=O)(O)O[C@@H]4[C@H](O)[C@@H](COP(=O)(O)O[C@@H]5[C@H](O)[C@@H](COP(=O)(O)O)O[C@H]5n5ccc(N)nc5=O)O[C@H]4n4ccc(N)nc4=O)O[C@H]3n3ccc(N)nc3=O)[C@@H](O)[C@H]2O)c(=O)n1 |  |  | 118 µM
CCN1c2ncc(CCOc3ccc4on(C(C)(C)C)c(=O)c4c3)cc2C(=O)Nc2c(C)cc(F)nc21 | RT-K103N Y181C | IIIB | >0.1 µM
Nc1ncnc2c(C[C@@H](OCP(=O)(O)OP(=O)(O)OP(=O)(O)O)C(F)F)cnn12 |  |  | 0.05–0.25 µM
CC(C)N1c2ccccc2N(C)C(=O)c2cnn(-c3ccccc3)c21 |  | IIIB | >30 µM
CC(C)c1ccccc1NC(=O)Cc1ccc(Oc2cc(C#N)cc(C#N)c2)c(Cl)c1 |  |  | 100 µM
CCN1c2ncc(CCOc3cccc4c3COC(=O)N4CC(=O)O)cc2C(=O)N(C)c2cccnc21 |  | IIIB | 0.05–0.1 µM

For reference, 4 entries again:

compound	mutations	strain	result
CCN1c2ncc(CCOc3cccc4c3CS(=O)(=O)N4)cc2-c2nccn2-c2c(C)ccnc21			<0.05 µM
CC(Cc1cnc2c(=O)[nH]c(N)nn12)OCP(=O)(O)OP(=O)(O)OP(=O)(O)O			0.05–0.25 µM
O=S(=O)(Cc1ccccc1I)c1cccc[n+]1[O-]			186 µg/mL
CCN1c2ncc(CCOc3cccc4c3CNC(=O)N4)cc2C(=O)N(C)c2cccnc21		IIIB	<0.05 µM